Test results from patent publication EP0286491B1, “Antimalarial aminoquinoline derivatives, method for their preparation and pharmaceutical composition containing them” (LA REGION WALLONNE, priority 1987, dated 1988).

System: P. berghei berghei (ANKA)
Test: Causal prophylactic activity in the rodent malaria model (sporozoite-infected mice, single i.v. treatment 3 h after inoculation)
Type: in vivo, souris Swiss OF1
Settings: ratio LD₅₀/CPD₅₀
Text: Le modèle de la malaria du rongeur, Plasmodium berghei-Anopheles stephensi-souris, mis au point par MOST, H., HERMAN, R. & SCHOENFELD, C. (1967) Am. J. Trop. Med. Hyg. 16, 572-575, permet de déterminer l'activité prophylactique causale (schizonticide tissulaire) de nouveaux composés thérapeutiques. La procédure utilisée est dérivée de celle de MOST, H. & MONTUORI, W.A. (1975) Am. J. Trop. Med. Hyg. 24, 179-182. Il s'agit du système P. berghei berghei (ANKA)- Anopheles stephensi-souris Swiss OF1. La souche ANKA de P. b. berghei est entretenue cycliquement sur Anopheles stephensi. La souche de souris Swiss OF1 est particulièrement sensible à P. b. berghei qui produit une infection toujours mortelle.
Les moustiques femelles (80 à 100 individus par préparation) sont débarassés de leurs pattes, ailes et abdomen, puis homogénéisés à 4°C à l'aide d'un potter en verre, dans du milieu M 199 (GIBCO) contenant 10 % de sérum foetal de veau. La suspension de sporozoïtes est ensuite purifiée des débris du moustique par deux centrifugations successives ( 2 min. à 50 g et 5 min. à 200 g) et le surnageant recueilli est conservé à 4°C. Après comptage dans une chambre de Petroff-Hausser, le nombre de parasites est ajusté par dilution avec le même milieu froid, à la densité de 2 x 10⁵ sporozoïtes/ml. L'ensemble de la procédure est toujours effectuée dans un maximum de 35 minutes et permet de préserver la viabilité et l'infectivité des sporozoïtes.
Un volume de 0,5 ml de la suspension contenant 10⁵ sporozoïtes est injectée i.v. aux souris Swiss OF1 femelles de 18 à 22 g utilisées pour les tests thérapeutiques.
Des groupes de 20 à 25 souris infectées comme décrit ci-dessus sont traités en une seule injection intraveineuse de primaquine diphosphate (Pq) ou des dérivés monoacyls et aminoacides de la primaquine sous formes dichlorhydrates (X-Pq) trois heures après l'inoculation des sporozoïtes. Le volume injecté est ajusté en fonction du poids de la souris, à raison de 0,5 ml pour un poids de 25 g. Les composés sont dilués dans du tampon phosphate salin (PBS) pH 7.0 et le pH est ajusté à 7.0. Les souris infectées mais non traitées (5 par groupe) reçoivent le tampon seul et servent à contrôler l'infectivité des sporozoïtes.
Les souris expérimentales sont gardées durant une période de 50 jours. Le développement de la parasitémie est suivi en examinant quotidiennement des frottis de sang, colorés 60 min. au Giemsa à 5 % dans du tampon Sörensen à pH 7,2, à partir du 5ème jour et ce jusqu'au 15ème jour. Le nombre d'animaux infectés peut ainsi être déterminé. Ces résultats permettent d'établir la survie à long terme (LTS, le nombre de souris survivantes non parasitées sur le nombre de souris infectées et traitées). […]

Compound | index thérapeutique (LD₅₀/CPD₅₀)
COc1cc(NC(C)CCCNC(=O)[C@H](C)N)c2ncccc2c1 (stereo partly drawn) [L-alanyl-Pq, N-1-L-alanyl, N-4-(méthoxy-6-quinolinyl-8) pentanediamine-1,4] | 7,5
COc1cc(NC(C)CCCNC(=O)[C@H](CC(C)C)NC(=O)[C@H](C)N)c2ncccc2c1 (stereo partly drawn) [L-leucyl-L-alanyl-Pq, N-1-L-Alanyl-L-Leucyl, N-4-(Méthoxy-6-quinolinyl-8) pentanediamine-1,4] | 3,7
COc1cc(NC(C)CCCNC(=O)[C@@H](N)CCCCN)c2ncccc2c1 (stereo partly drawn) [L-lysyl-Pq] | 2,6
COc1cc(NC(C)CCCNC(=O)[C@@H](N)Cc2ccccc2)c2ncccc2c1 (stereo partly drawn) [L-phenylalanyl-Pq, N-1-L-phénylalanyl , N-4(methoxy-6-quinolinyl-8) pentanediamine-1,4] | 5,3
